A mixed list of measured activities; the numbers were collected in NIAID ChemDB.

Shared fields: toxicity to cultured cells; cells: VERO; endpoint: CC50

An empty or dashed field is not shown. Rows are shuffled and stem from different studies. CCn: concentration that lowers growth or viability of the cells by n%.

smiles,read by,result
Nc1nc2c(ncn2[C@@H]2OC[C@](CO)(CCP(=O)(O)O)[C@@H]2F)c(=O)[nH]1,MTT,>100 µM
O=C(Nc1ccccc1[N+](=O)[O-])NC1N=C(c2ccccc2)c2ccccc2NC1=O,-,1.5 µM
O=C1c2ccccc2C(=O)c2sc(Nc3ccc(Cl)c(Cl)c3)nc21,-,3.7 µg/mL
O=C1NC(=O)c2c1c1c3ccc(F)cc3[nH]c1c1[nH]c3cc(F)ccc3c21,-,58 µM
CCC[CH2][Sn]([Cl])([CH2]CCC)[S]C(=S)NCCNC(=S)[S][Sn]([Cl])([CH2]CCC)[CH2]CCC,-,0.14 µg/mL
C=CCn1cc(C(N)=O)c(=O)c2ccc(-c3ccncc3)cc21,-,>6.25 µg/mL
COc1ccc2c(c1)[nH]c1c3[nH]c4cc(OC)ccc4c3c3c(c21)C(=O)NC3=O,-,<8 µM
Cc1cc(C(C#N)c2ccc(Cl)cc2)c(Cl)cc1NC(=O)c1cc(I)cc(I)c1O,-,10 µg/mL
C=CC(O)C#CC#CC(O)/C=C\CCCCCCC,-,>120 µg/mL
Nc1ncnc2c1[nH]c[n+]2C1C[C@@H]2CC[C@H]1[NH2+]2.O=C([O-])C(F)(F)F.O=C([O-])C(F)(F)F,MTS,>109 µM
CSc1c(C)n([O-])c2cc(Cl)c(Cl)cc2[n+]1=O,-,3.1 µg/mL
CCn1c(=O)c(C(N)=O)c(O)c2ccc(-c3ccncc3)cc21,-,>6.25 µg/mL
FC(F)(F)c1ccccc1Nc1nc(-c2ccccn2)cs1,luminescence,30 µM
O=C(NC(=O)C1N=C(c2ccccc2)c2ccccc2NC1=O)C1CCCC1,-,2 µM
O=C(N/N=C/NC(=O)c1cnccn1)c1ccncc1,-,>10 µg/mL
O=[N+]([O-])c1cc2cccc([N+](=O)[O-])c2o1,-,0.5 µg/mL
Nc1nc(-c2ccccn2)cs1,luminescence,>100 µM
Cc1nn(C(=O)c2ccncc2)c(-c2ccccc2)c1N=Nc1nc2ccc([N+](=O)[O-])cc2s1,-,>10 µg/mL
O=C(Cc1cccc(C(F)(F)F)c1)NC1N=C(c2ccccc2)c2ccccc2NC1=O,-,1.5 µM
O=C(NC[C@@H]1OC(=O)N2c3cc(F)c(C4=CCN(CCO)CC4)cc3OC[C@@H]12)C1CCC1,resazurin,>64 µg/mL
CO[C@H]1/C=C/O[C@@]2(C)Oc3c(C)c(O)c4c(c3C2=O)C(=O)c2cnc(nc2C4=O)/C(C)=C\C=C\[C@H](C)[C@H](O)[C@@H](C)[C@@H](O)[C@@H](C)[C@H](OC(C)=O)[C@@H]1C,-,4.59 µg/mL
O=C(NC1N=C(c2ccccc2)c2ccccc2NC1=O)c1ccncc1,-,2.5 µM
CCn1cc(C(N)=O)c(=O)c2ccc(-c3ccc(N)cc3)cc21,-,>6.25 µg/mL
CCCCCC(=O)N1C[C@H]2C[C@@H]1CC2n1cnc2c(Cl)ncnc21,MTS,86 µM
COc1ccc2c(c1)[n+]([O-])c(/C(C)=N/NC(=O)c1ccccc1O)c(C)[n+]2[O-],-,6.06 µg/mL
O=C1NC(=O)c2c1c1c3ccc(O)cc3[nH]c1c1[nH]c3cc(O)ccc3c21,-,84 µM
O=C([O-])C(F)(F)F.O=C([O-])C(F)(F)F.c1nc([NH2+]C2CC2)c2ncn(C3C[C@H]4C[C@@H]3C[NH2+]4)c2n1,MTS,>303 µM
NC(=O)c1cn(-c2cccc(F)c2)c2cc(-c3ccncc3)ccc2c1=O,-,>25 µg/mL
Cc1cccc(C)c1Nc1nc(-c2ccccc2S)cs1,luminescence,>100 µM
CC(C)(C)OC(=O)N1C[C@H]2CC(n3cnc4c(NC5CC5)ncnc43)[C@@H]1C2,MTS,>135 µM
O=C(NC(=O)C1N=C(c2ccccc2)c2ccccc2NC1=O)c1csc2ccccc12,-,5 µM
NC(=O)c1cn(-c2ccc(Cl)c(Cl)c2)c2cc(-c3ccncc3)ccc2c1=O,-,>100 µg/mL
CCCCCCC/C=C\C(O)C#CC#CC(O)CC,-,>120 µg/mL
O=C(Nc1ncc([N+](=O)[O-])s1)c1cccc([N+](=O)[O-])c1,-,4.44 µg/mL
O=C1C=CN([C@@H]2O[C@H](CO)[C@@H](O)[C@H]2O)C(=O)C1,neutral red,593 µg/mL
CC1=C(N)C(=O)C2=C(C1=O)N1C[C@H]3[C@H](N3C)[C@]1(O)[C@@H]2COC(N)=O,-,0.4 µg/mL
C[C@]1(/C=C/P(=O)(O)O)CO[C@@H](n2cnc3c(=O)[nH]c(N)nc32)C1,-,>100 µM
O=C(Nc1ccn(-c2ccccn2)n1)NC1CCCC1,luminescence,>100 µM
O=c1cnn([C@@H]2O[C@H](CO)[C@@H](O)[C@H]2O)c(=O)[nH]1,neutral red,58 µg/mL
CCCCCCOCCN1CCN(CCCN2c3ccccc3Sc3ccc(C(F)(F)F)cc32)CC1.Cl.Cl,-,5.31 µg/mL
FC(F)(F)c1ccccc1Nc1nc(-c2ccccc2)cs1,luminescence,14 µM
O=[N+]([O-])Cc1cnc2nncn2n1,-,5.5 µg/mL
CC(=O)OC[C@H]1O[C@@H](n2ncc(=O)[nH]c2=O)[C@H](OC(C)=O)[C@@H]1OC(C)=O,neutral red,80 µg/mL
CCCCCCCCCCC[C@@H]1CCC[C@H](C)N1,-,5.62 µg/mL
COc1ccc2[nH]c3c4[nH]c5ccc(OC)cc5c4c4c(c3c2c1)C(=O)NC4=O,-,>60 µM
O=C(NC[C@@H]1OC(=O)N2c3cc(F)c(C4=CCN(C(=O)CO)CC4)cc3OC[C@@H]12)C1CCC1,resazurin,>64 µg/mL
CCC(=O)OC[n+]1ccc2c(C)c3[nH]c4ccc(OC)cc4c3c(C)c2c1,-,<0.257 µg/mL
CC(C)(C)C(=O)N1[C@@H]2CC[C@H]1C(n1cnc3c(NC4CC4)ncnc31)C2,MTS,>135 µM
c1ccc(-c2csc(Nc3ccc4ccccc4c3)n2)nc1,luminescence,9 µM
CC(=O)NC[C@@H]1OC(=O)N2c3ccc(C4=CCN(CCO)CC4)cc3OC[C@@H]12,resazurin,26.77 µg/mL
CC(/C=C/c1ccco1)=N\NC(=O)c1ccncc1,-,28 µg/mL
O=C(CO)N1CC=C(c2cc3c(cc2F)N2C(=O)O[C@@H](CNc4ccon4)[C@@H]2CO3)CC1,resazurin,>64 µg/mL
O=C(Nc1cccnc1)c1ccc(CSc2ccc(Cl)cc2)o1,-,12.8 µg/mL
c1ccc(Nc2nc(-c3ccccn3)cs2)cc1,luminescence,16 µM
C[C@]1(/C=C/P(=O)(O)O)CO[C@@H](n2cnc3c(N)ncnc32)C1,-,>100 µM
Nc1ncnc2c1ncn2CCOCP(=O)(O)O,MTT,>100 µM
Cc1c2ccncc2cc2c1sc1ccncc12,-,>10 µg/mL
CC(C)(C)OC(=O)N1[C@H]2CC[C@@H]1C(n1cnc3c(N)ncnc31)C2,MTS,>151 µM
O=C(N=CN1CCN(c2cc3c(cc2F)c(=O)c(C(=O)O)cn3C2CC2)CC1)c1cnccn1,-,>10 µg/mL
Clc1ccc2nnnn2n1,-,0.71 µg/mL
O=C(NNC=NCc1ccccc1)c1ccncc1,-,>10 µg/mL
O=C1NC(=O)c2c1c1c3cc(O)ccc3[nH]c1c1[nH]c3ccc(O)cc3c21,-,>31 µM
Cc1ccc(NC(=O)c2ccco2)cc1Cl,-,53.59 µg/mL
CC(=O)NC[C@@H]1OC(=O)N2c3ccc(C4=CCN(C(=O)CO)CC4)cc3OC[C@@H]12,resazurin,13.76 µg/mL
Nc1nccc2c1ncn2[C@@H]1C=C(CO)[C@@H](O)[C@H]1O,-,100 µg/mL
O=C(Nc1nc(-c2ccccn2)cs1)C1CCCCC1,luminescence,39 µM